Sequences of proteins named here, by UniProt entry; tags and fusion partners are left off. A change or cut given only in a name is not applied to a line headed by its entry.
UniProt Q9P8P2: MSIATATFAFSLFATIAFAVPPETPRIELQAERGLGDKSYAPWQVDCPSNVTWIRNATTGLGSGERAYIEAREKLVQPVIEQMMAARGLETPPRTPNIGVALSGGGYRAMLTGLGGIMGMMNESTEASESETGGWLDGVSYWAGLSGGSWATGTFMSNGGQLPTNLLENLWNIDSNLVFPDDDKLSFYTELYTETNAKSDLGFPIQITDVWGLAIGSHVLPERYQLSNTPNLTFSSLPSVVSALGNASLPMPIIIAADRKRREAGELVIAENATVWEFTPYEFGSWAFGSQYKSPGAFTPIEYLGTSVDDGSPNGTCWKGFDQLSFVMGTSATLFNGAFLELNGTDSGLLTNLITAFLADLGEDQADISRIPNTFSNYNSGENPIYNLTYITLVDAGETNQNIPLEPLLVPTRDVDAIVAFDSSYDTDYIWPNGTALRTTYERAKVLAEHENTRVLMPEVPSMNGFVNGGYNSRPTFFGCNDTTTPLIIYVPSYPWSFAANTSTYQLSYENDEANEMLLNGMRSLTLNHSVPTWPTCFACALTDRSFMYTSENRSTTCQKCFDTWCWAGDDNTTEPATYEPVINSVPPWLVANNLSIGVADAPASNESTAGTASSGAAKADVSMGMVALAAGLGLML

In patent US20100016367A1, “BIS-PYRINIDIUM COMPOUNDS” (priority 2006, published 2010):

Columns and labels:
C. gattii 05-200122 = test: Antifungal MIC, broad spectrum; type: cell-based, Cryptococcus gattii; conditions: Table 1b
S. apiospermum 05-203100 = test: Antifungal MIC, broad spectrum; type: cell-based, Scedosporium apiospermum; conditions: Table 1b
[1] = system: Fusarium solani 04-203102; test: Antifungal MIC, broad spectrum; type: cell-based; conditions: Table 1b
[2] = system: Exophiala spinifera 03-200803; test: Antifungal MIC, broad spectrum; type: cell-based; conditions: Table 1b
[3] = system: Absidia corymbifera 04-200170; test: Antifungal MIC, broad spectrum; type: cell-based; conditions: Table 1b
[4] = system: Paecilomyces lilacinus 05-200601; test: Antifungal MIC, broad spectrum; type: cell-based; conditions: Table 1b
[5] = system: Rhizopus oryzae 05-203111; test: Antifungal MIC, broad spectrum; type: cell-based; conditions: Table 1b
[6] = system: Exophiala jeanselmei 03-200268; test: Antifungal MIC, broad spectrum; type: cell-based; conditions: Table 1b
C. neoformans ATCC 90112 = test: Antifungal susceptibility assay, MIC; type: cell-based, Cryptococcus neoformans
A. terreus 05-202844 = test: Antifungal MIC, broad spectrum; type: cell-based, Aspergillus terreus; conditions: Table 1b
[7] = system: MRSA (methicillin resistant S. aureus); test: In vitro antibacterial MIC; conditions: Gram-positive; listed as 1,12-bis(4-pentylpyridinium)dodecane
[8] = system: Staphylococcus aureus 25923; test: In vitro antibacterial MIC; conditions: Gram-positive; listed as 1,12-bis(4-pentylpyridinium)dodecane
[9] = system: Pseudomonas aeruginosa 122; test: In vitro antibacterial MIC; conditions: Gram-negative; listed as 1,12-bis(4-pentylpyridinium)dodecane
[10] = system: Streptococcus pneumonia 49619; test: In vitro antibacterial MIC; conditions: Gram-positive; listed as 1,12-bis(4-pentylpyridinium)dodecane
[11] = system: VRE (Vancomycin resistant Enterococcus); test: In vitro antibacterial MIC; conditions: Gram-positive; listed as 1,12-bis(4-pentylpyridinium)dodecane
Escherichia coli 25922 = test: In vitro antibacterial MIC; conditions: Gram-negative; listed as 1,12-bis(4-pentylpyridinium)dodecane
C. tropicalis 04-202361 = test: Antifungal MIC, broad spectrum; type: cell-based, Candida tropicalis; conditions: Table 1b
Epidermophyton floccosum = test: In-vitro activity against dermatophytes, MIC; type: cell-based; conditions: 5 isolates
Trichophyton rubrum = test: In-vitro activity against dermatophytes, MIC; type: cell-based; conditions: 20 isolates
Microsporum canis = test: In-vitro activity against dermatophytes, MIC; type: cell-based; conditions: 5 isolates
Trichophyton soudanense = test: In-vitro activity against dermatophytes, MIC; type: cell-based; conditions: 3 isolates
Trichophyton violaceum = test: In-vitro activity against dermatophytes, MIC; type: cell-based; conditions: 3 isolates
[12] = system: Trichophyton mentagrophytes; test: In-vitro activity against dermatophytes, MIC; type: cell-based; conditions: 18 isolates
Microsporum gypseum = test: In-vitro activity against dermatophytes, MIC; type: cell-based; conditions: 5 isolates
Trichophyton tonsurans = test: In-vitro activity against dermatophytes, MIC; type: cell-based; conditions: 16 isolates
Microsporum cookie = test: In-vitro activity against dermatophytes, MIC; type: cell-based; conditions: 2 isolates
A. fumigatus 05-203114 = test: Antifungal MIC, broad spectrum; type: cell-based, Aspergillus fumigatus; conditions: Table 1b
A. fumigatus ATCC 204305 = test: Antifungal MIC, broad spectrum; type: cell-based, Aspergillus fumigatus; conditions: Table 1b
[13] = system: Scedosporium apiospermum 1-003-056; test: In vitro antifungal activity vs Amphotericin B; conditions: Table 2; listed as 1,12-bis(4-pentylpyridinium)dodecane
[14] = system: Fusarium solani 04-132-4207; test: In vitro antifungal activity vs Amphotericin B; conditions: Table 2; listed as 1,12-bis(4-pentylpyridinium)dodecane
[15] = system: Scedosporium prolificans 1-003-040; test: In vitro antifungal activity vs Amphotericin B; conditions: Table 2; listed as 1,12-bis(4-pentylpyridinium)dodecane
[16] = system: Aspergillus terreus ATCC 03-232-378; test: In vitro antifungal activity vs Amphotericin B; conditions: Table 2; listed as 1,12-bis(4-pentylpyridinium)dodecane
C. albicans ATCC 90028 = test: Antifungal MIC, broad spectrum; type: cell-based, Candida albicans; conditions: Table 1b
[17] = system: Cunninghamella berth 99-12187; test: Antifungal MIC, broad spectrum; type: cell-based, Cunninghamella bertholletiae; conditions: Table 1b
C. albicans ATCC 10231 = test: Antifungal susceptibility assay, MIC; type: cell-based, Candida albicans
A. flavus 05-203758 = test: Antifungal MIC, broad spectrum; type: cell-based, Aspergillus flavus; conditions: Table 1b
A. flavus ATCC 204304 = test: Antifungal MIC, broad spectrum; type: cell-based, Aspergillus flavus; conditions: Table 1b
C. glabrata 04-202345 = test: Antifungal MIC, broad spectrum; type: cell-based, Candida glabrata; conditions: Table 1b
[18] = target: Secretory Cryptococcal H99 Phospholipase B (PLB) (Cryptococcus neoformans, UniProt Q9P8P2); test: Phospholipase inhibition, radiometric assay; type: biochemical, C. neoformans var. grubii; conditions: read-out: Concentration required for 50% inhibition of PLB; secreted PLB activity, pH 4.0, 37° C.
C. neoformans 05-202523 = test: Antifungal MIC, broad spectrum; type: cell-based, Cryptococcus neoformans; conditions: Table 1b
[19] = system: C. parapsilosis ATCC 22019; test: Antifungal MIC, broad spectrum; type: cell-based, Candida parapsilosis; conditions: Table 1b
[20] = system: C. parapsilosis 04-202398; test: Antifungal MIC, broad spectrum; type: cell-based, Candida parapsilosis; conditions: Table 1b
S. prolificans 05-203060 = test: Antifungal MIC, broad spectrum; type: cell-based, Scedosporium prolificans; conditions: Table 1b
C. krusei 04-202328 = test: Antifungal MIC, broad spectrum; type: cell-based, Candida krusei; conditions: Table 1b
C. krusei ATCC 6258 = test: Antifungal MIC, broad spectrum; type: cell-based, Candida krusei; conditions: Table 1b
C. krusei ATCC 9258 = test: Antifungal MIC, broad spectrum; type: cell-based, Candida krusei; conditions: Table 1b
[21] = Table 2, listed as 1,12-bis(4-pentylpyridinium)dodecane

CCCCCc1cc[n+](CCCCCCCCCCCC[n+]2ccc(CCCCC)cc2)cc1
MIC C. gattii 05-200122 (C. gattii 05-200122): 1.4 µM
MIC S. apiospermum 05-203100 (S. apiospermum 05-203100): 5.5 µM
MIC Fusarium solani 04-203102 [1]: 87.5 µM
MIC Exophiala spinifera 03-200803 [2]: 0.7 µM
MIC Absidia corymbifera 04-200170 [3]: >87.5 µM
MIC Paecilomyces lilacinus 05-200601 [4]: >87.5 µM
MIC Rhizopus oryzae 05-203111 [5]: 2.75 µM
MIC Exophiala jeanselmei 03-200268 [6]: 1.4 µM
MIC C. neoformans ATCC 90112 (C. neoformans ATCC 90112; Table 1): 2.7 µM
MIC C. neoformans ATCC 90112 (C. neoformans ATCC 90112; Table 1b): 2.75 µM
MIC C. neoformans ATCC 90112 (C. neoformans ATCC 90112; Table 1c): 2.75 µM
In vitro antifungal activity, Cryptococcus neoformans ATCC 90112 (C. neoformans ATCC 90112; [21]): 1.2 μg/ml and 2.2 μM
MIC A. terreus 05-202844 (A. terreus 05-202844): 11 µM
MIC MRSA (methicillin resistant S. aureus) [7]: 1.45 μg/ml and 2.7 μM
MIC Staphylococcus aureus 25923 [8]: 3.0 μg/ml and 5.5 μM
MIC Pseudomonas aeruginosa 122 [9]: 86 μg/ml and 160 μM
MIC Streptococcus pneumonia 49619 [10]: 1.45 μg/ml and 2.7 μM
MIC VRE (Vancomycin resistant Enterococcus) [11]: 5.9 μg/ml and 11 μM
MIC Escherichia coli 25922 (Escherichia coli 25922): 5.9 μg/ml and 11 μM
MIC C. tropicalis 04-202361 (C. tropicalis 04-202361): 1.4 µM
MIC GM, Epidermophyton floccosum (Epidermophyton floccosum): 7.635 µg/mL
MIC Range, Epidermophyton floccosum (Epidermophyton floccosum): 2 to 16 µg/mL
MIC GM (geometric mean of the MICs), Trichophyton rubrum (Trichophyton rubrum): 10.41 µg/mL
MIC Range, Trichophyton rubrum (Trichophyton rubrum): 4 to 16 µg/mL
MIC50, Trichophyton rubrum (Trichophyton rubrum; MIC at which 50% of the isolates were inhibited): 8 µg/mL
MIC90, Trichophyton rubrum (Trichophyton rubrum; MIC at which 90% of the isolates were inhibited): 16 µg/mL
MIC GM, Microsporum canis (Microsporum canis): 2.954 µg/mL
MIC Range, Microsporum canis (Microsporum canis): 1 to 4 µg/mL
MIC GM, Trichophyton soudanense (Trichophyton soudanense): 14.54 µg/mL
MIC Range, Trichophyton soudanense (Trichophyton soudanense): 8 to 16 µg/mL
MIC GM, Trichophyton violaceum (Trichophyton violaceum): 8.963 µg/mL
MIC Range, Trichophyton violaceum (Trichophyton violaceum): 1 to 32 µg/mL
MIC50, Trichophyton mentagrophytes [12]: 8 µg/mL
MIC90, Trichophyton mentagrophytes [12]: 16 µg/mL
MIC GM, Trichophyton mentagrophytes [12]: 9.007 µg/mL
MIC Range, Trichophyton mentagrophytes [12]: 2 to 32 µg/mL
MIC GM, Microsporum gypseum (Microsporum gypseum): 2.408 µg/mL
MIC Range, Microsporum gypseum (Microsporum gypseum): 1 to 4 µg/mL
MIC50, Trichophyton tonsurans (Trichophyton tonsurans): 2 µg/mL
MIC90, Trichophyton tonsurans (Trichophyton tonsurans): 8 µg/mL
MIC GM, Trichophyton tonsurans (Trichophyton tonsurans): 2.802 µg/mL
MIC Range, Trichophyton tonsurans (Trichophyton tonsurans): 1 to 8 µg/mL
MIC GM, Microsporum cookie (Microsporum cookie): 1.061 µg/mL
MIC Range, Microsporum cookie (Microsporum cookie): 0.5 to 2 µg/mL
MIC A. fumigatus 05-203114 (A. fumigatus 05-203114): 87.5 µM
MIC A. fumigatus ATCC 204305 (A. fumigatus ATCC 204305): 87.5 µM
In vitro antifungal activity, Scedosporium apiospermum 1-003-056 [13]: 1.5 μg/ml and 2.8 μM
In vitro antifungal activity, Fusarium solani 04-132-4207 [14]: 47 μg/ml and 88 μM
In vitro antifungal activity, Scedosporium prolificans 1-003-040 [15]: 0.75 μg/ml and 1.4 μM
In vitro antifungal activity, Aspergillus terreus ATCC 03-232-378 [16]: 0.7 μg/ml and 1.2 μM
MIC C. albicans ATCC 90028 (C. albicans ATCC 90028): 2.75 µM
MIC Cunninghamella berth 99-12187 [17]: 87.5 µM
MIC C. albicans ATCC 10231 (C. albicans ATCC 10231; Table 1): 2.7 µM
MIC C. albicans ATCC 10231 (C. albicans ATCC 10231; Table 1b): 2.75 µM
MIC C. albicans ATCC 10231 (C. albicans ATCC 10231; Table 1c): 2.75 µM
In vitro antifungal activity, Candida albicans ATCC 10231 (C. albicans ATCC 10231; [21]): 0.6 μg/ml and 1.2 μM
MIC A. flavus 05-203758 (A. flavus 05-203758): 87.5 µM
MIC A. flavus ATCC 204304 (A. flavus ATCC 204304): 44 µM
MIC C. glabrata 04-202345 (C. glabrata 04-202345): 2.75 µM
IC50 [18]: 12.5 µM
MIC C. neoformans 05-202523 (C. neoformans 05-202523): 87.5 µM
MIC C. parapsilosis ATCC 22019 [19]: 1.4 µM
MIC C. parapsilosis 04-202398 [20]: 87.5 µM
MIC S. prolificans 05-203060 (S. prolificans 05-203060): 2.75 µM
MIC C. krusei 04-202328 (C. krusei 04-202328): 22 µM
MIC C. krusei ATCC 6258 (C. krusei ATCC 6258): 11 µM
MIC C. krusei ATCC 9258 (C. krusei ATCC 9258): 11 µM

Where “and” joins values, the source holds several entries; their conditions need not be identical. Equal values may be shown once.
